Measured values from several laboratories, pooled; numbers as filed in NIAID ChemDB.

All rows: cytotoxicity tests; endpoint: CC50

Two numbers with a dash give a range or band. Neighbouring rows are from separate reports. CCn: concentration that lowers growth or viability of the cells by n%. An empty or dashed field is not shown.

SMILES | cells | method | result
O=C1NC(=O)/C(=C/c2ccc(-c3ccc(C(=O)Nc4ccccc4)cc3)cc2)S1 | HepG2-NTCP | MTS | >10 µM
CCN1C(=O)Cc2cc(C(=O)CN3CCN(c4noc5ccccc45)CC3)ccc21 | RAW 264.7 | MTT | 65.07 µg/mL
CNC[C@@H](Cc1ccc2ccccc2c1)NC[C@H](Cc1ccc2ccccc2c1)NCC1(c2ccccc2)CC1 | KB cells |  | 1.77 µg/mL
CC(C)N(Cc1cccc(OCCCCCC(=O)OC(=O)O)c1)C(=O)c1ccc(-c2ccc3c(c2)OCCO3)cc1 | RAJI |  | >20 µM
CCCCCCCCCCCCCCCCCCOCCOP(=O)(O)CO[C@H](CO)Cn1cnc2c(N)ncnc21 | Huh7.5.1 | neutral red | 35.6 µM
CC1(C)C(=O)CC[C@]2(C)[C@@H]1CC[C@@]13CC[C@@H](C[C@H]12)C([C@@H](O)CO)C3 | HepG2/ADR | MTT | 93.74 µM
COc1ccc2nc3n[nH]c(C)c3c(Cl)c2c1 | FS-85 |  | >100 µg/mL
O=C(OCC1OC(OC(=O)c2cc(O)c(O)c(O)c2)C(OC(=O)c2cc(O)c(O)c(O)c2)C(OC(=O)c2cc(O)c(O)c(O)c2)C1OC(=O)c1cc(O)c(O)c(O)c1Oc1cc2c(c(O)c1O)-c1c(cc(O)c(O)c1O)C(=O)OCC1OC(OC(=O)c3cc(O)c(O)c(O)c3)C(OC(=O)c3cc(O)c(O)c(O)c3)C(OC(=O)c3cc(O)c(O)c(O)c3)C1OC2=O)c1cc(O)c(O)c(O)c1 | H9 |  | 93 µM
O=C1N=C(N2CCOCC2)S/C1=C\c1ccc(-c2ccc(C(=O)O)c(O)c2)o1 | BAE | MTT | 76 µM
Nc1ncnc2c1ncn2C[C@H](CO)OCP(=O)(O)O | Huh7.5.1 | neutral red | >100 µM
COc1ccc2nc3cc(Cl)ccc3c(NCCNC(=O)[C@@H]3CCCN3)c2c1 | MRC-5 cells | MTS | 0.325 µM
O=c1ccn(-c2ccc(F)cc2)c2cc(-n3ccnc3)c(F)cc12 | HPB-ALL | luminescence | 205.4 µM
COc1ccc2nc3cc(Cl)ccc3c(NCCNC(=O)[C@@H](N)Cc3cnc[nH]3)c2c1 | MRC-5 cells | MTS | 5.86 µM
COc1cc(OC[C@H]2CC[C@@H](COCc3ccccc3)O2)ncn1 | PC-3 |  | 90 µM
CC[C@@]1(O)C(=O)OCc2c1cc1n(c2=O)Cc2cc3c(CN(C)C)c(O)ccc3nc2-1 | 293.27.2 |  | 0.03–0.1 µM
CC1C(=O)N(C)c2ccc(C(=O)CN3CCN(c4noc5c(Cl)cccc45)CC3)cc21 | RAW 264.7 | MTT | 86.44 µg/mL
O=C(OC1[C@H](O)CC(O)(C(=O)O)C[C@H]1O)c1cc(O)c(O)c(O)c1 | H9 |  | 80 µM
O=C1NC(=Nc2ccc(F)c(Cl)c2)S/C1=C\c1ccc(-c2ccc(C(=O)O)c(O)c2)o1 | HT-29 | MTT | 1.1 µM
CN1C(=O)Cc2cc(C(=O)CN3CCN(c4noc5cc(Cl)ccc45)CC3)ccc21 | RAW 264.7 | MTT | 58.41 µg/mL
O=c1ccn(-c2ccc(F)cc2)c2cc(-c3ccccn3)ccc12 | HPB-ALL | luminescence | >100 µM
CCC(CN[C@@H]1CNC[C@H]1N(CCC(C)C)S(=O)(=O)c1ccc(N)cc1)NC(=O)[C@@H](NC(=O)OC)C(c1ccccc1)c1ccccc1 | T lymphoid cells | microscopy | >10 µM
CCCN(Cc1ccccc1OCC(=O)O)C(=O)c1ccc(-c2ccc3c(c2)OCO3)cc1 | BJ |  | >20 µM
COc1ccc(C2C(C(=O)/C=C/c3ccc(Cl)cc3)=C(/C=C/c3ccc(Cl)cc3)N=C3SC=C(C)N32)cc1 | C1008 (Vero cells) | resazurin | 273 µg/mL
CCOC(=O)CCCCCOc1cccc(CN(C(=O)c2ccc(-c3cccc(F)c3)cc2)C(C)C)c1 | HepG2 |  | >20 µM
O=Cc1coc2c(Br)cc(Br)cc2c1=O | HTLV-I-bearing MT-4 | MTT | 92.3 µg/mL
CCCCC(CN[C@@H]1CNC[C@H]1N(CCC(C)C)S(=O)(=O)c1ccc(N)cc1)NC(=O)[C@@H](NC(=O)OC)C(c1ccccc1)c1ccccc1 | T lymphoid cells | microscopy | >10 µM
CC1(C)C(=O)C=C[C@]2(C)[C@@H]1CC[C@@]13CC[C@@H](C[C@H]12)[C@](O)(CO)C3 | HepG2/ADR | MTT | >100 µM
Nc1nc(Cl)cc(OC[C@H]2CC[C@@H](COCc3ccccc3)O2)n1 | CAKI-1 |  | 120 µM
CN(C)c1cccc2c(S(=O)(=O)Nc3ccc(NC(=O)C(C)(C)CCl)cc3)cccc12 | Mouse fibroblast cell lines |  | 15.6 µM
O=C(O[C@@H]1[C@@H](c2c(O)cc(O)c3c2O[C@H](c2ccc(O)c(O)c2)[C@H](OC(=O)c2cc(O)c(O)c(O)c2)C3)c2c(O)cc(O)cc2O[C@@H]1c1ccc(O)c(O)c1)c1cc(O)c(O)c(O)c1 | H9 |  | >25 µM
CC1C(=O)N(C)c2ccc(C(=O)CN3CCN(c4noc5cccc(Cl)c45)CC3)cc21 | RAW 264.7 | MTT | 65.61 µg/mL
Nc1nc(OC[C@H]2CC[C@@H](CO)O2)c2[nH]cnc2n1 | CAKI-1 |  | 183 µM
COc1ccc2nc3cc(Cl)ccc3c(NCCCCCCN)c2c1 | KB cells | MTS | 7 µM
N#Cc1coc2ccccc2c1=O | HTLV-I-bearing MT-4 | MTT | 121.9 µg/mL
CN(C(=O)c1ccncc1)c1cc(C(F)(F)F)ccc1N1CCCCC1 | Huh7/Rep-Feo-2a | MTS | >30 µM
COc1ccc2occ(C=O)c(=O)c2c1 | HTLV-I-bearing MT-4 | MTT | 96.7 µg/mL
COC(=O)N[C@H](C(=O)NCCN[C@@H]1CNC[C@H]1N(CC(C)C)S(=O)(=O)c1ccc(N)cc1)C(c1ccccc1)c1ccccc1 | T lymphoid cells | microscopy | >10 µM
Nc1cc(N2CCC(=O)c3ccc(-n4ccnc4)cc32)c(F)cc1F | HPB-ALL | luminescence | 17.6 µM
CC1C(=O)N(C)c2ccc(C(=O)CN3CCN(c4ccc([N+](=O)[O-])cc4)CC3)cc21 | RAW 264.7 | MTT | 70.18 µg/mL
COC(=O)N[C@H](C(=O)NC(CN[C@@H]1CNC[C@H]1N(CCC(C)C)S(=O)(=O)c1ccc(N)cc1)CC(C)C)C(c1ccccc1)c1ccccc1 | T lymphoid cells | microscopy | >10 µM
Nc1nc(N)nc(OC[C@H]2CC[C@@H](COCc3ccccc3)O2)n1 | CAKI-1 |  | 134 µM
O=Cc1coc2ccc(Cl)cc2c1=O | HTLV-I-bearing MT-4 | MTT | 17.9 µg/mL
Nc1cc(OC[C@@H]2O[C@H](CO)[C@@H](O)[C@H]2O)nc(N)n1 | PC-3 |  | >250 µM
CCCCCCCCCCCCCCCCOCCCOP(=O)(O)CO[C@@H](CO)Cn1cnc2c(N)ncnc21 | Huh7.5.1 | neutral red | >100 µM
N=C1Sc2ccccc2C2=NCCCN12 | Macrophage | LDH | >300 µM
O=C(O)c1cc2ccccc2oc1=O | HTLV-I-bearing MT-4 | MTT | 612.9 µg/mL
CC1=CSC2=NC(/C=C/c3ccc(OCc4ccccc4)cc3)=C(C(=O)/C=C/c3ccc(OCc4ccccc4)cc3)C(c3ccccc3)N12 | C1008 (Vero cells) | resazurin | >500 µg/mL
C/C(=N\N=C(N)N)c1cc(NC(=O)CCCCCCCCC(=O)Nc2cc(/C(C)=N/N=C(N)N)cc(/C(C)=N/N=C(N)N)c2)cc(/C(C)=N/N=C(N)N)c1 | HepG2 2.2.15 |  | 24.67 µM
COc1cc(OC[C@H]2CC[C@@H](COCc3ccccc3)O2)nc(N)n1 | PC-3 |  | 69 µM
O=C(O[C@@H]1Cc2c(O)cc(O)cc2O[C@@H]1c1ccc(O)c(O)c1)c1cc(O)c(O)c(O)c1 | H9 |  | >25 µM
COc1ccc(CCNC(=O)CCCCC(C)=O)cc1OC | HEK 293 |  | <7.5 µM
O=C1NC(=O)/C(=C/c2ccc(-c3ccc(-c4cccnc4)cc3)cc2)S1 | HepG2-NTCP | MTS | >10 µM
O=Cc1coc2ccc(Br)cc2c1=O | HTLV-I-bearing MT-4 | MTT | 28.1 µg/mL
CN(C)c1cccc2c(S(=O)(=O)Nc3ccc(NC(=O)C(C)(C)CO)cc3)cccc12 | Mouse fibroblast cell lines |  | 62.5 µM
CC(=O)c1cc2ccccc2oc1=O | HTLV-I-bearing MT-4 | MTT | 395.5 µg/mL
CCOC(=O)CCCCCOc1cccc(CN(C(=O)c2ccc(-c3ccoc3)cc2)C(C)C)c1 | BJ |  | >20 µM
CC(C)(C)C(=O)Nc1ccc(NS(=O)(=O)c2cccc3ccccc23)cc1 | Mouse fibroblast cell lines |  | 31.3 µM
CC1=CSC2=NC(/C=C/c3ccccc3Cl)=C(C(=O)/C=C/c3ccccc3Cl)C(c3ccc(Cl)cc3)N12 | C1008 (Vero cells) | resazurin | 430 µg/mL
COc1ccccc1-c1ccc(-c2ccc(/C=C3\SC(=O)NC3=O)cc2)cc1 | HepG2-NTCP | MTS | 9.6 µM
CC1=CSC2=NC(/C=C/c3ccc(F)cc3)=C(C(=O)/C=C/c3ccc(F)cc3)C(c3ccccc3)N12 | C1008 (Vero cells) | resazurin | 306 µg/mL
O=C1NC(=O)/C(=C/c2ccc(-c3ccc(Oc4ccccc4)cc3)cc2)S1 | HepG2-NTCP | MTS | >10 µM
COC(=O)N[C@H](C(=O)NCCN(C)[C@@H]1CNC[C@H]1N(CCC(C)C)S(=O)(=O)c1ccc(N)cc1)C(c1ccccc1)c1ccccc1 | T lymphoid cells | microscopy | >10 µM
COc1ccc2nc3cc(Cl)ccc3c(NCCCCNC(=O)[C@@H]3CCCN3)c2c1 | KB cells | MTS | 0.115 µM
O=Cc1coc2ccccc2c1=O | HTLV-I-bearing MT-4 | MTT | 30.8 µg/mL
COC(=O)N[C@H](C(=O)NCCN[C@@H]1CNC[C@H]1N(Cc1ccccc1)S(=O)(=O)c1ccc(N)cc1)C(c1ccccc1)c1ccccc1 | T lymphoid cells | microscopy | >10 µM
CCc1ccc(CCN=C2NC(=O)/C(=C/c3ccc(-c4ccc(C(=O)O)c(O)c4)o3)S2)cc1 | BAE | MTT | 20 µM

The last 4 rows once more:

SMILES	cells	method	result
COc1ccc2nc3cc(Cl)ccc3c(NCCCCNC(=O)[C@@H]3CCCN3)c2c1	KB cells	MTS	0.115 µM
O=Cc1coc2ccccc2c1=O	HTLV-I-bearing MT-4	MTT	30.8 µg/mL
COC(=O)N[C@H](C(=O)NCCN[C@@H]1CNC[C@H]1N(Cc1ccccc1)S(=O)(=O)c1ccc(N)cc1)C(c1ccccc1)c1ccccc1	T lymphoid cells	microscopy	>10 µM
CCc1ccc(CCN=C2NC(=O)/C(=C/c3ccc(-c4ccc(C(=O)O)c(O)c4)o3)S2)cc1	BAE	MTT	20 µM